Human monoclonal antibodies against the spike receptor-binding domain (heavy:light variable regions). IC50 against pseudoviruses bearing the spike of naturally observed variants; lower = stronger; >10 µg/ml means not reached at the top dose. No active / inactive call. The stated detection limit is 0.0005 µg/ml; values near or below 0.001 µg/ml lie at the floor of the assay.
B1: BD-515 (protein)
chain 1: EVQLVESGGGLVQPGGSLRLSCAASEFIVSRNYMSWVRQAPGKGLEWVSVIYSGGSTFYADSVKGRFTISRDNSKNTLYLQMNSLRAEDTGVYYCARDRGLVSDYWGQGTLVTVSS
chain 2: DIQMTQSPSSLSASVGDRVTITCQASQDINKYLNWYQQKPGKAPKLLIFDASHLETGVPSRFSASGSGTDFTFTISSLQPEDIATYYCHQYDNLPRTFGQGTRLEIK
B2: BD55-6388 (protein)
chain 1: QVQLVQSGAEVKKPGSSVKVSCKASGDTFSKYAISWVRQAPGQGLEWMGGIIPIFGKANYAQKFQGRVTITADESTSTAYMQLSSLRSEDTAEYYCATLPFYDILTGYSKYYFDYWGQGTLVTVSS
chain 2: QSALTQPASVSGSPGQSITISCTGTNSDVGGYNYVSWYQRHPGKAPKLMIYDVSNRPSGVSNRFSGSKSGNTASLTISGLQTEDEADYYCSSYTSSSISVIFGGGTKLTVL
B3: BD55-6389 (protein)
chain 1: DVQLLVSGGGLVQPGGSLRLSCAASGFNFSTYAMTWVRQAPGKGLEWVSGITGSRGSTFHADSVKGRFTISRDISKNILYLQMSSLRAEDSAVYFCAKDSLPAVNYFYYYYGMDVWSHGTTVTVSS
chain 2: IALTQSPATLSLSPGDRATLSCRASQSVSSYLAWYQHKPGQAPRLLIYDASRRATGIPARFSGSGSGTDFTLTISSLEPEDFAVYYCQQRSNWPTFGGGTKVEIK
B4: BD55-6391 (protein)
chain 1: QVQLVQSGAEVKKPGSSVKVSCKASGGTFSSYTISWVRQAPGQGLEWMGKIIPILGIASYAQRFQGRVTITADKSTSTAYLELSSLRSEDTAVYYCAREFCSGGSCSYNNWFDPWGQGTLVTVSS
chain 2: QSVLTQPPSVSGAPGQRVTISCTGSNSNIGAGYVVHWYQQLPGTAPKLLIYGNNNRPSGVPDRFSGSKSDTSASLAITGLQAEDEADYYCQSYDSSLTISGVFGGGTKLTVL
B5: BD55-6393 (protein)
chain 1: QAQLVQSGAEVKRPGSSVKVSCQASGGTFSSYGFSWMRQAPGQGLEWIGRIIPILGIANYAPKFQSRVTITAEESTTTAYMELSSLRSEDTAVYYCARSSLDYGDYLLRYNWFDPWGQGTLVTVSS
chain 2: DIQMTQSPSSLSASVGDRVTITCRASQNITSYLSWYQLKPGKAPRLLIYTASSLQSGVPSRFSGSGSGTDFSLTISSLQPEDFATYCCQQSYNFPWTFGRGTKVEI
B6: BD55-6396 (protein)
chain 1: EVQLVESGGVVVQPGGSLRLSCAASGFTFDDYSMHWVRQAPGKGLEWVSIINWDGRSTYYADSVKGRFTISRDNSKKSLYLQMNSLRVEDTGLYYCAKDPHYYGSGSYYRGEYYYYYMDVWGKGTTVTVSS
chain 2: EIVLTQSPATLSLSPGERATLSCRASQSVDNYFAWYQQKPGQAPRLLISDASNRAPGIPARFSGSGSGTDFTLTISGIETEDFAVYYCQRRSTFGPGTRVDIK

Tests used:
Test in all cases: pseudovirus neutralization IC50; higher = weaker neutralization
[1] = target: SARS-CoV-2 Omicron BA.1 spike pseudovirus
Method: (§1)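 Single-round VSV luciferase pseudovirus mixed with antibody dilutions for 1 h and put on Huh-7 cells for about a day; IC50 from the dose curve.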

[2] = target: SARS-CoV-2 Omicron BA.2 spike pseudovirus
Method: as §1

[3] = target: SARS-CoV-2 Omicron BA.2.75 spike pseudovirus
Method: as §1

[4] = target: SARS-CoV-2 Omicron BA.5 spike pseudovirus
Method: as §1

[5] = target: SARS-CoV-2 Omicron BQ.1.1 spike pseudovirus
Method: as §1

[6] = target: SARS-CoV-2 Omicron XBB spike pseudovirus
Method: as §1

[7] = target: SARS-CoV-2 early D614G spike pseudovirus
Method: as §1

Binder | pseudovirus neutralization IC50 [1] [µg/mL] | pseudovirus neutralization IC50 [2] [µg/mL] | pseudovirus neutralization IC50 [3] [µg/mL] | pseudovirus neutralization IC50 [4] [µg/mL] | pseudovirus neutralization IC50 [5] [µg/mL] | pseudovirus neutralization IC50 [6] [µg/mL] | pseudovirus neutralization IC50 [7] [µg/mL]
B1 | 0.00467 | 0.00491 | 0.208 | 0.00587 | 0.674 | 0.753 | 0.0369
B2 | > 10 | > 10 | > 10 | > 10 | > 10 | > 10 | > 10
B3 | > 10 | > 10 | > 10 | > 10 | > 10 | > 10 | > 10
B4 | 0.0615 | 0.031 | 0.0314 | > 10 | > 10 | 0.241 | 0.0425
B5 | 2.44 | 2.35 | > 10 | 0.35 | > 10 | > 10 | 1.54
B6 | > 10 | > 10 | > 10 | > 10 | > 10 | > 10 | > 10
